# Experimental data reported in publication PMC6191443, “Structural basis for arginine glycosylation of host substrates by bacterial effector proteins” (2018).
# Test: non-reducing gel, HEK293T lysates
# Details: glycan lost; control: co-expression with WT SseK1
protein,measurement,value
TRADD: SseK1 DxD-AxA and HEN motif single mutants (protein) parent chain: MAAGQNGHEEWVGSAYLFVESSLDKVVLSDAYAHPQQKVAVYRALQAALAESGGSPDVLQMLKIHRSDPQLIVQLRFCGRQPCGRFLRAYREGALRAALQRSLAAALAQHSVPLQLELRAGAERLDALLADEERCLSCILAQQPDRLRDEELAELEDALRNLKCGSGARGGDGEVASAPLQPPVPSLSEVKPPPPPPPAQTFLFQGQPVVNRPLSLKDQQTFARSVGLKWRKVGRSLQRGCRALRDPALDSLAYEYEREGLYEQAFQLLRRFVQAEGRRATLQRLVEALEENELTSLAEDLLGLTDPNGGLA,oligomerisation,increases
